Measured values from several laboratories, pooled; numbers as filed in NIAID ChemDB.

All rows: growth or infection tests; agent: Aspergillus fumigatus; read-out: MIC

Blank or dashed fields: not listed here. Neighbouring rows are from separate reports.

SMILES,strain or isolate,method,value
COC(=O)N[C@H](C(=O)NN(CC[C@@]1(Cc2ccccc2)C(=O)N(C2c3ccccc3C[C@H]2O)C[C@H]1O)Cc1ccc(-c2ccccn2)cc1)C(C)(C)C,RCMB 002003,agar,7.8 µg/mL
O=C1CS[C@H](c2ccccc2)N1c1nc(N2CCOCC2)n[nH]1,168.95,broth dilution,100 µg/mL
CC(C)S(=O)(=O)N1CCN(c2cnn(-c3cc(F)cc(F)c3)c(=O)c2OC2CCC(F)C2)CC1,ND256,broth dilution,0.5 µg/mL
Cc1ccc(C(C)C)cc1O,CECT2071,,0.16 µg/mL
CC(C)CCCCCCCCC1CC(=O)NCC(=O)N[C@@H](CCCN)C(=O)N[C@@H](C(C)C)C(=O)N1,IFM4942,,>80 µg/mL
COC(=O)N[C@H](C(=O)NN(CC[C@@]1(Cc2ccccc2)C(=O)N(C2c3ccccc3C[C@H]2O)C[C@@H]1O)Cc1ccc(-c2ccccn2)cc1)C(C)(C)C,RCMB 002003,agar,7.8 µg/mL
COC(=O)/C=C/c1ccccc1,,broth dilution / resazurin,250 µg/mL
O=C(CSc1nnc(-c2ccc3ncccc3c2)o1)Nc1nc2ccccc2s1,,agar,100 µg/mL
COC(=O)N[C@H](C(=O)NN(CC[C@@]1(Cc2ccccc2)C(=O)N(C2c3ccccc3C[C@H]2O)C[C@H]1O)Cc1ccc(-c2ccncc2)cc1)C(C)(C)C,RCMB 002003,agar,7.8 µg/mL
Nc1ccc(S(=O)(=O)Nc2ccnn2-c2ccccc2)cc1,IFM 47450,,64 µg/mL
O=c1c(N2CCOCC2)c(N2CCN(S(=O)(=O)Cc3ccccc3)CC2)cnn1-c1ccccc1,ND256,broth dilution,25 µg/mL
COc1ccc([C@H]2SC(C)C(=O)N2c2nc(N3CCN(C)CC3)n[nH]2)cc1OC,168.95,broth dilution,>100 µg/mL
N#Cc1ccc(NC(=O)CSc2nnc(-c3ccc4ncccc4c3)o2)cc1,,agar,100 µg/mL
Cc1nnc(NS(=O)(=O)c2ccc(N)cc2)s1,IFM 51126,,≥256 µg/mL
O=C(CSc1nnc(-c2ccc3ncccc3c2)o1)Nc1ccc(Cl)cc1,,agar,100 µg/mL
CC1S[C@H](c2ccc3c(c2)OCO3)N(c2nc(N3CCN(C)CC3)n[nH]2)C1=O,168.95,broth dilution,10 µg/mL
CC(C)CCCCCCCCCC1CC(=O)NCC(=O)N[C@@H](CCCCN)C(=O)N[C@@H](C(C)C)C(=O)N1,IFM41088,,>80 µg/mL
Cc1cc(NS(=O)(=O)c2ccc(N)cc2)nc(C)n1,IFM 53412,,≥256 µg/mL
COC(=O)N[C@H](C(=O)NN(CC[C@@]1(Cc2ccccc2)C(=O)N(C2c3ccccc3C[C@H]2O)C[C@@H]1O)Cc1ccc(-c2ccncc2)cc1)C(C)(C)C,RCMB 002003,agar,15.6 µg/mL
CN1CCN(c2n[nH]c(N3C(=O)CS[C@@H]3c3ccc4c(c3)OCO4)n2)CC1,182.99,broth dilution,50 µg/mL
Cc1cc(NS(=O)(=O)c2ccc(N)cc2)no1,IFM 53412,,64 µg/mL
COC(=O)N[C@H](C(=O)NN(CC[C@]1(Cc2ccccc2)C(=O)N(C2c3ccccc3C[C@H]2O)C[C@@H]1O)Cc1ccc(Br)cc1)C(C)(C)C,RCMB 002003,agar,15.6 µg/mL
O=C(CSc1nnc(-c2ccc3ncccc3c2)o1)Nc1ccc(F)cc1,,agar,50 µg/mL
COC(=O)N[C@H](C(=O)NN(CCC[C@@]1(Cc2ccccc2)C(=O)N(C2c3ccccc3C[C@H]2O)C[C@H]1O)Cc1ccc(Br)cc1)C(C)(C)C,RCMB 002003,agar,7.8 µg/mL
O=C(CSc1nnc(-c2ccc3ncccc3c2)o1)Nc1ccc(Br)cc1,,agar,25 µg/mL

The first 2 rows once more:

SMILES,strain or isolate,method,value
COC(=O)N[C@H](C(=O)NN(CC[C@@]1(Cc2ccccc2)C(=O)N(C2c3ccccc3C[C@H]2O)C[C@H]1O)Cc1ccc(-c2ccccn2)cc1)C(C)(C)C,RCMB 002003,agar,7.8 µg/mL
O=C1CS[C@H](c2ccccc2)N1c1nc(N2CCOCC2)n[nH]1,168.95,broth dilution,100 µg/mL